For the test, the system named is IIIB strain of HIV. The class given is cell-based. The following applies: MT-4 cells, 3 days, p24 ELISA, approximate log10 concentration. How it is done: The following test procedure was employed.
In a classical virology assay aimed at testing the antiviral activity of a drug, the virus is added in the presence of a drug to target cells for the determined period of inoculation time, e.g., 1 hour, and then nonadsorbed virus is washed away and inoculated cells are exposed again to a fresh drug. After several days, a period corresponding to the replication cycle of the virus, the dose-effect of the drug is tested by measuring the quantity of newly-synthesized virus in the culture supernates of inoculated cells. But this strategy is not truly representative of the in vivo situation. It is clear that in a real-life situation the virus is not "flushed" from a human body prior to drug administration. […] In the present assay, virus, drug and cells were left without washing in the culture until tested for virus production 3 days later. This period of time presents one full cycle of HIV replication, Dimitrov et al., J. Virol. 67:2182-90, 1993. […]
p24 ELISA. Reduction of productive infection was evaluated by a commercial ELISA kit for viral core gag p24 product according to the manufacturer's instructions (Coulter, Hialeah, Fla.) as follows. […] The amount of captured p24 was measured by comparing the optical density (450 nm) of peroxidase substrate with supplied standards containing known amounts of p24. […]
A general note: In an ELISA, binding on a coated surface is turned into a signal by an enzyme label.

One substance from patent publication US5552382A, “Gramicidin as a spermicide against sexual transmission of HIV” (priority 1994, dated 1996) can be followed below.

Consider gramicidin, for which the “IC50 (50% inhibition of HIV infection)” value stood at 10 pg.
